Laboratory results: patent US10376456B2, “Concentrated and self-preserving compositions of mild surfactants for transparent and skin-pH personal care formulations” (GALAXY SURFACTANTS LTD., priority 2015, dated 2019)

Assay: Foam volume and lather potential (drainage time), Hart-DeGeorge method
Assay type: physicochemical
Conditions: Surfactant (1%) at 25° C. and at pH 6.5

In the case of Sodium cocoyl isethionate, the Foam volume was 380 mL.
sodium cocoyl glycinate showed a Foam volume of 200 mL.
